Here are results for 1 substance from paper PMC10998906, “Triple tandem trimer immunogens for HIV-1 and influenza nucleic acid-based vaccines” (2024).

In the assay the target is H1 GCN4 (NL09 HA, GCN4-trimerized) (influenza A virus A/Netherlands/602/2009(H1N1)). The experiment in a line: negative-stain EM.

With “H1 GCN4 (NL09 HA, GCN4-trimerized) (domain or fragment)”, the stoichiometry N is 3.
